Pooled drug test results. Numbers come from NIAID ChemDB, via PubChem.

All rows: whole-cell or culture tests; agent: Mycobacterium avium

Conditions beyond the fields shown may differ between rows. ECn: concentration that inhibits the pathogen or its effect by n%. A number after MIC or MFC names an inhibition level or a share of isolates. Blank or dashed fields: not listed here.

compound | setting | endpoint | strain | method | result
c1cc(CSc2ncn[nH]2)cc(-c2nn[nH]n2)c1 | - | MIC | MY330/88 | - | >500 µM
CCCCCCCCCOc1cccc(NC(=O)OCC[NH+]2CCCC2)c1 | - | MIC | MY330/88 | - | 32 µM
O=c1oc2ccc(Cl)cc2c(=S)n1-c1ccc(F)cc1 | 14 d | MIC | MY330/88 | - | 62.5 µM
CCCCCCCOc1ccc(NC(=O)OCCN2CCOCC2)cc1 | - | MIC | MY330/88 | - | 16 µM
CCOc1c(N2CCC(C(C)(C)N)C2)c(F)cc2c(=O)c(C(=O)O)cn(C3CC3)c12 | - | MIC | RG0 | - | 1 µg/mL
COc1cccc(CSc2ncn[nH]2)c1 | - | MIC | MY330/88 | - | 1000 µM
O=c1oc2ccc(F)cc2c(=S)n1-c1ccc(Br)cc1 | 14 d | MIC | MY330/88 | - | 4 µM
Cc1cn([C@@H]2O[C@H](CO)[C@@H](O)[C@@H]2O)c(=O)[nH]c1=O | - | EC50 | ATCC 25291 | - | >50 µg/mL
Clc1ccc(Nc2nnc(-c3ccncc3)o2)cc1Cl | 21 d | MIC100 | MY330/88 | broth dilution | >125 µM
CCCCOc1ccc(NC(=O)OCCN2CCOCC2)cc1 | - | MIC | MY330/88 | - | 125 µM
CC(C)c1ccc(NC(=O)NNC(=O)c2ccncc2)cc1 | 14 d | MIC100 | MY330/88 | broth dilution | 16 µM
Cc1ccc2oc(=S)n(-c3cccc(Cl)c3)c(=S)c2c1 | 21 d | MIC | MY330/88 | - | 4 µM
CCCCCCCc1ccc(NC(=O)NNC(=O)c2ccncc2)cc1 | 21 d | MIC100 | MY330/88 | broth dilution | 62.5 µM
Clc1ccc2c(c1)nc1cc(Nc3ccccc3)c(=NC3CCCCC3)cc-1n2-c1ccccc1 | - | MIC | 6194 | - | 2 µg/mL
O=c1oc2ccc(Cl)cc2c(=S)n1-c1ccc(C(F)(F)F)cc1 | 14 d | MIC | MY330/88 | - | 32 µM
COc1ccccc1NC(=O)OCCN1CCOCC1 | - | MIC | MY330/88 | - | >1000 µM
O=C(NNC(=O)c1ccncc1)Nc1cc(Cl)cc(Cl)c1 | 21 d | MIC100 | MY330/88 | broth dilution | 125 µM
Cc1ccc(CS(=O)(=O)c2ncn[nH]2)cc1 | - | MIC | MY330/88 | - | >500 µM
Cc1cn([C@H]2C=C[C@@H](CO)O2)c(=O)[nH]c1=O | - | EC50 | ATCC 25291 | - | >50 µg/mL
COc1ccc2oc(=S)n(-c3ccc(Br)cc3)c(=S)c2c1 | 21 d | MIC | MY330/88 | - | 62.5 µM
C=Cc1cn([C@H]2C[C@H](O)[C@@H](CO)O2)c(=O)[nH]c1=O | - | EC50 | ATCC 25291 | - | >50 µg/mL
Clc1ccc(CSc2ncn[nH]2)cc1Cl | - | MIC | MY330/88 | - | 500 µM
Fc1cc(Nc2nnc(-c3ccncc3)o2)ccc1Br | 21 d | MIC100 | MY330/88 | broth dilution | >125 µM
Cc1ccc2nc(SCc3ccccc3F)[nH]c2c1 | - | MIC | MY330/88 | - | 62 µM
O=c1oc2ccc(Br)cc2c(=O)n1-c1ccccc1 | - | MIC | CNCTC MY330/88 | - | 62 µM
COCc1cn([C@H]2C[C@H](O)[C@@H](CO)O2)c(=O)[nH]c1=O | - | EC50 | ATCC 25291 | - | >50 µg/mL
O=c1oc2ccc(F)cc2c(=S)n1-c1ccccc1 | 14 d | MIC | MY330/88 | - | 16 µM
CCCCCCOc1ccccc1NC(=O)OCCN1CCCCCC1 | - | MIC | MY330/88 | - | 32 µM
O=c1oc2cc(Cl)ccc2c(=O)n1-c1ccc(Cl)cc1 | - | MIC | CNCTC MY330/88 | - | 16 µM
Brc1ccc(CSc2ncn[nH]2)cc1 | - | MIC | MY330/88 | - | 500 µM
COc1ccc(CSc2nc3ccc(C)cc3[nH]2)cc1 | - | MIC | MY330/88 | - | >62 µM
CC(C)(C)n1cc(C(=O)O)c(=O)c2cc(F)c(N3CCNCC3)nc21 | - | MIC | RG1 | - | 1 µg/mL
O=c1oc2ccccc2c(=O)n1-c1ccccc1 | - | MIC | CNCTC MY330/88 | - | 125 µM
S=c1oc2ccc(Br)cc2c(=S)n1-c1cccc(Cl)c1 | 14 d | MIC | MY330/88 | - | 16 µM
Cc1ccc2nc(SCc3ccc(F)c(F)c3)[nH]c2c1 | - | MIC | MY330/88 | - | >62 µM
CCCCCCOc1ccccc1NC(=O)OCC[NH+]1CCCC1 | - | MIC | MY330/88 | - | 32 µM
Cc1cccc(C(N)=Nc2nc(-c3ccccn3)cc3ccccc23)c1 | - | MIC | SK-12 | - | 1 µg/mL
NNC(=O)c1ccncc1 | - | MBC | 3337-4 | - | 80 µg/mL
COc1ccc2oc(=O)n(-c3ccc(F)cc3)c(=O)c2c1 | - | MIC | CNCTC MY330/88 | - | 62.5 µM
S=c1oc2ccc(Br)cc2c(=S)n1-c1ccccc1 | 14 d | MIC | MY330/88 | - | 8 µM
Cc1ccc2nc(SCc3c(F)cccc3[N+](=O)[O-])[nH]c2c1 | - | MIC | MY330/88 | - | >125 µM

For reference, 6 entries again:

{"compound": "Clc1ccc(CSc2ncn[nH]2)cc1Cl", "endpoint": "MIC", "strain": "MY330/88", "result": "500 µM"}
{"compound": "Clc1ccc(Nc2nnc(-c3ccncc3)o2)cc1Cl", "setting": "21 d", "endpoint": "MIC100", "strain": "MY330/88", "method": "broth dilution", "result": ">125 µM"}
{"compound": "CCCCOc1ccc(NC(=O)OCCN2CCOCC2)cc1", "endpoint": "MIC", "strain": "MY330/88", "result": "125 µM"}
{"compound": "COc1ccc2oc(=S)n(-c3ccc(Br)cc3)c(=S)c2c1", "setting": "21 d", "endpoint": "MIC", "strain": "MY330/88", "result": "62.5 µM"}
{"compound": "O=C(NNC(=O)c1ccncc1)Nc1cc(Cl)cc(Cl)c1", "setting": "21 d", "endpoint": "MIC100", "strain": "MY330/88", "method": "broth dilution", "result": "125 µM"}
{"compound": "COCc1cn([C@H]2C[C@H](O)[C@@H](CO)O2)c(=O)[nH]c1=O", "endpoint": "EC50", "strain": "ATCC 25291", "result": ">50 µg/mL"}